Measured values taken from US5935995A, “Prodrugs for the therapy of tumors and inflammatory disorders” (Heochst Aktiengesellschaft, priority 1996, dated 1999).

By UniProt entry, the sequences of proteins in these tests, tags left out. Where a name states a change or a piece, a line headed by the entry shows the natural chain unless it says otherwise.
UniProt P05804: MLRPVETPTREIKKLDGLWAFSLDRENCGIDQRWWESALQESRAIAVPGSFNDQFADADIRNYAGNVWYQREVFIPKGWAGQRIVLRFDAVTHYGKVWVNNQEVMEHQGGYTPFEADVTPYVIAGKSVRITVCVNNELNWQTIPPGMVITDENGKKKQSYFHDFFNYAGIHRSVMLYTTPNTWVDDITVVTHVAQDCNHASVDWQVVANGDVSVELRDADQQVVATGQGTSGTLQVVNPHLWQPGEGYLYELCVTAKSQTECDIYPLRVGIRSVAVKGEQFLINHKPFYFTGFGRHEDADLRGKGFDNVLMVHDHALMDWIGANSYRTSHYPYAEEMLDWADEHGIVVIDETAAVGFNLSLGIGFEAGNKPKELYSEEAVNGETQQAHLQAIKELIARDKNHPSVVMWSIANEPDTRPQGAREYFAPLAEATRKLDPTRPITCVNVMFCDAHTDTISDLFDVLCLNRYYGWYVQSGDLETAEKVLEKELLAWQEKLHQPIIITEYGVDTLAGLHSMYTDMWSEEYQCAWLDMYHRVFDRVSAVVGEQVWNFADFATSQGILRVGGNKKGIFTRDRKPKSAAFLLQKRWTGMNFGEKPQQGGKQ

Target: E. coli β-glucuronidase (Sigma) (Escherichia coli, UniProt P05804)
Assay: Enzymatic cleavage of F 373 on incubation with E. coli β-glucuronidase, HPLC analysis
Conditions: for peak area (HPLC): 37° C., pH 7.2, with β-glucuronidase, starting from F 373

Compound	peak area (HPLC) (0 min)	peak area (HPLC) (1 min)	peak area (HPLC) (5 min)	peak area (HPLC) (7 min)	peak area (HPLC) (10 min)	peak area (HPLC) (15 min)	peak area (HPLC) (25 min)	peak area (HPLC) (60 min)	enzymatic cleavage on incubation with b-glucuronidase (cleaved to compound 7, glucuronic acid and the spacer)
Cn1c(=O)oc2ccc([N+](=O)[O-])cc21	0	1.92	4.75	5.37	5.43	5.43	5.70	6.53	–
CN(C(=O)Oc1ccc(N(CCCl)CCCl)cc1)c1cc([N+](=O)[O-])ccc1O[C@@H]1O[C@H](C(=O)O)[C@@H](O)[C@H](O)[C@H]1O [F 373, 2-[N-Methyl-N-[4-(N,N'-bis(2-chloroethyl)amino)phenyloxycarbonyl]-amino]-4-nitrophenyl-β-D-glucuronic acid]	19.41	10.46	0.35	0	0	0	0	0	cleaved enzymatically
